Usually IC50 stands for the concentration that gives 50% inhibition.

Consider 1 compound from ChEMBL document CHEMBL5241077 (Eur J Med Chem, 2021).

The test system of this experiment is Yellow fever virus. Kind of experiment: Antiviral activity against YFV harboring firefly luciferase gene at IRES site infected hamster BHK cells assessed as inhibition of viral replication incubated for 36 hrs by firefly luciferase based bioluminescence assay.

`C/C(=N\NC(=N)N)c1ccc(NC(=O)Nc2ccc(/C(C)=N/NC(=N)N)cc2)cc1`: the 50% inhibitory concentration (IC50) is 13 µM.
